Data from US20260034277A1, “SYSTEMS AND METHODS FOR PATHOGEN INACTIVATION OF BLOOD PRODUCTS” (Cerus Corporation, priority 2024, published 2026).

Assay: Residual amotosalen (S-59) pre- and post-UVA in treated platelets, HPLC, manual dosing
Type: physicochemical
Details: for Pre-UVA S-59: platelets 47% plasma/53% PAS
Method: Multiple studies were performed to determine the level of residual compound remaining after photochemical treatment of platelets with a psoralen for pathogen inactivation. More specifically, the studies were performed using a range of platelet volumes (e.g., 200 mL-450 mL; 50 mL volume increments) and using a single initial input concentration of the psoralen compound, amotosalen (S-59) by changing input volume. For each volume tested, units of platelets, prepared in 47% plasma/53% PAS, were pooled and split into two to three individual units, each in an illumination container of an INTERCEPT® Blood System processing set. The individual units were each dosed with amotosalen from an initial starting concentration (e.g., stock solution) at a volume needed to achieve a final 70 μM target concentration for each platelet volume, mixed well, and subjected to illumination with UVA light. The doses of UVA light tested for each volume included, for example, one or more light doses ranging from 2.5 J/cm^2 to 6.5 J/cm^2. (e.g., 2.5-4.5 J/cm^2 for 200 mL, 3.5-4.0 J/cm^2 for 250 mL 4.5-6.5 J/cm^2 for 300 mL, 5.2 J/cm^2 for 350 mL, 5.5-6.5 J/cm^2 for 400 mL, 6.4-6.5 J/cm^2 for 450 mL). UVA treatment was performed in the illumination container using an illuminator device with LED light (e.g., narrow bandwidth) having peak wavelength between 340-350 nm. Samples were collected both pre- and post-UVA illumination for HPLC analysis of amotosalen concentration.
From the multiple studies above, UVA light doses that provided low residual amotosalen levels (e.g., less than 7.5 μM) post-UVA treatment were selected for each specified platelet volume. These light doses are shown in Table 1 below, together with a corresponding measured volume of platelets, which the light dose may be used in conjunction with. This exemplary light dose and volume relationship identified in the studies may be further defined in the graph of FIG. 4A, which plots UVA light dose versus volume for achieving low residual amotosalen levels.
Each of the 40 μM, 50 μM, 60 μM and 70 μM test conditions used 250 mL sample volumes and UVA light doses of 3.8 J/cm^2. Amotosalen concentrations were determined before and after illumination with UVA.

## Cc1oc2c(C)c3oc(=O)cc(C)c3cc2c1COCCN [S-59, 3-(2-aminoethoxymethyl)-2,5,9-trimethylfuro[3,2-g]chromen-7-one]
200 mL, target 70 μM, UVA 3.2 J/cm^2
  Pre-UVA S-59: 71.1 ± 2.4 µM
250 mL, target 70 μM, UVA 3.8 J/cm^2
  Pre-UVA S-59: 71.5 ± 3.7 µM
300 mL, target 70 μM, UVA 4.5 J/cm^2
  Pre-UVA S-59: 72.5 ± 3.2 µM
350 mL, target 70 μM, UVA 5.2 J/cm^2
  Pre-UVA S-59: 74.8 ± 2.0 µM
400 mL, target 70 μM, UVA 6.0 J/cm^2
  Pre-UVA S-59: 69.8 ± 2.6 µM
450 mL, target 70 μM, UVA 6.4 J/cm^2
  Pre-UVA S-59: 68.5 ± 0.8 µM
Target 40 μM, 250 mL, UVA 3.8 J/cm^2
  Pre-UVA amotosalen concentration: 40.8 ± 1.2 µM
Target 50 μM, 250 mL, UVA 3.8 J/cm^2
  Pre-UVA amotosalen concentration: 50.7 ± 3.3 µM
Target 60 μM, 250 mL, UVA 3.8 J/cm^2
  Pre-UVA amotosalen concentration: 62.0 ± 0.3 µM
Target 70 μM, 250 mL, UVA 3.8 J/cm^2
  Pre-UVA amotosalen concentration: 71.5 ± 3.2 µM
